A mixed list of measured activities; the numbers were collected in NIAID ChemDB.

Common to all: whole-cell or culture tests; species: HIV-1; measure: EC50

Two numbers with a dash give a range or band.

compound	strain or isolate	mutations	cell line	method	result
CN(C(=O)[C@H](Cc1cc(F)cc(F)c1)NC(=O)CN1c2ccccc2N(CC(=O)N[C@@H](Cc2cc(F)cc(F)c2)C(=O)N(C)c2ccc3c(c2)ncn3C)S1(=O)=O)c1ccc2c(c1)ncn2C	NL4-3		MT-2	luciferase	0.42 µM
CCOC(=O)c1ccc(NC(=O)Nc2cccc3c(C(=O)C(=O)N4CCC(=C(C#N)c5ccccc5)CC4)c[nH]c23)cc1			HeLa	luciferase / reporter gene	<1 µM
COc1ccc(N(C)C(=O)[C@H](Cc2ccccc2)NC(=O)NS(=O)(=O)N[C@@H](Cc2ccccc2)C(=O)N(C)c2ccc(OC)cc2C)cc1	NL4-3		MT-2	luciferase	1.72 µM
Cc1nnc(C(=C2CCN(C(=O)C(=O)c3c[nH]c4c(Cl)ccnc34)CC2)c2ccccc2)o1			HeLa	luciferase	<1 µM
C[C@@H]1CN(C(=O)c2ccccc2)CCN1C(=O)C(=O)c1c[nH]c2c(NC(=O)CO)cccc12			HeLa	luciferase / reporter gene	<1 µM
CCc1ccc(-c2c(C(OC(CC)CC)C(=O)O)c(C)nc3ccc(Cl)cc23)cc1			C8166	luciferase / reporter gene	<20 µM
C[C@@H]1CN(C(=O)c2ccccc2)CCN1C(=O)C(=O)c1c[nH]c2c(NC(=O)c3ccno3)cccc12			HeLa	luciferase / reporter gene	<1 µM
Cc1cc(OCCCN2CCOCC2)ccc1NC(=O)COc1ccc(Cl)cc1C(=O)c1cccs1	HXB2 (RT-K103N Y181C) Recombinant	RT-K103N Y181C	HeLa + HELA CD4+	β-galactosidase	0.101–1 µM
C=CCNC(=O)c1c(COC)nc(Nc2ccc(C#N)cc2)nc1Nc1c(C)cc(/C=C/C#N)cc1C	K103N+Y101C		MT4 CMV-EGFP		0.0224 µM
CN1N=C(N)c2cn([C@@H]3O[C@H](COP(=O)(O)O)[C@@H](O)[C@H]3O)c3ncnc1c23	205		CEM + CEM-SS	cytopathic effect / XTT	>2.9 µM
COc1cnc(-n2ccnn2)c2[nH]cc(C(=O)C(=O)N3CCC(=C(c4ccccc4)c4cnn(Cc5ccccc5)c4)CC3)c12			HeLa	luciferase	<1 µM
COc1ccc2ccc3c(c2c1)SC(C)CNC3=O			OM-10.1	p24	0.2 µM
CC(=O)Nc1ccc(F)c2c(C(=O)C(=O)N3CC/C(=C(\C#N)c4cccnc4)CC3C)c[nH]c12			HeLa	luciferase / reporter gene	<1 µM
COCc1nc(Nc2ccc(C#N)cc2)nc(Nc2c(C)cc(/C=C/C#N)cc2C)c1C(=O)NCCC#N	K103N + Y181C		MT4 CMV-EGFP		0.0145 µM
COC(C(=O)O)c1c(C)nc2ccc(Br)cc2c1-c1ccc(Cl)cc1			C8166	luciferase / reporter gene	<20 µM
COc1ccc2c(c1)C1=C(CC2)C(=O)NCCN1Cc1ccccc1Cl			OM-10.1	p24	0.9 µM
Cc1cc(S(N)(=O)=O)ccc1NC(=O)COc1ccc(Cl)cc1C(=O)c1cccc(C#N)c1	HXB2 (RT-K103N G190A) Recombinant	RT-K103N G190A	HeLa + HELA CD4+	β-galactosidase	0.011–0.1 µM
CCc1nnc(C(=C2CCN(C(=O)C(=O)c3c[nH]c4c(-n5ccnn5)ncc(OC)c34)CC2)c2ccccc2)o1			HeLa	luciferase	<1 µM
CN(C(=O)[C@H](Cc1cc(F)cc(F)c1)NC(=O)NS(=O)(=O)N[C@@H](Cc1cc(F)cc(F)c1)C(=O)N(C)c1ccc(C(F)(F)F)nc1)c1ccc(C(F)(F)F)nc1	NL4-3		MT-2	luciferase	0.47 µM
CCCC(C(=O)O)c1c(C)nc2cc(F)c(F)cc2c1-c1ccc(C)cc1			C8166	luciferase / reporter gene	<20 µM
CCCN1CCNC(=O)c2sc3ccc(OC)cc3c21			OM-10.1	p24	<0.08 µM
COc1ccc(N(C)C(=O)[C@H](Cc2ccccc2)NC(=O)NS(=O)(=O)N[C@@H](Cc2ccc(F)cc2)C(=O)N(C)C)cc1	NL4-3		MT-2	luciferase	2.67 µM
COCc1nc(Nc2ccc(C#N)cc2)nc(Nc2c(C)cc(/C=C/C#N)cc2C)c1C(=O)NCCc1ccc(S(N)(=O)=O)cc1	MDR		MT4 CMV-EGFP		0.191 µM
COc1ccc2sc3c(c2c1)N(Cc1ccc([N+](=O)[O-])cc1)CCNC3=O			OM-10.1	p24	0.02 µM
Cc1cc(C#N)cc(C(=O)c2cc(Cl)ccc2OCC(=O)Nc2ccc(S(N)(=O)=O)cc2C)c1	HXB2 (RT-K103N G190A) Recombinant	RT-K103N G190A	HeLa + HELA CD4+	β-galactosidase	<0.01 µM
COC(=O)c1cc(NC(=O)Nc2cccc3c(C(=O)C(=O)N4CCN(C(=O)c5ccccc5)C[C@H]4C)c[nH]c23)cc(C(=O)OC)c1			HeLa	luciferase / reporter gene	<1 µM
Cc1nc2ccc(Br)cc2c(-c2ccc(Cl)cc2)c1C(O[C@H](C)C#N)C(=O)O			C8166	luciferase / reporter gene	<20 µM
Cc1cc(C)cc(C(=O)c2cc(Cl)ccc2OCC(=O)Nc2ccc(S(N)(=O)=O)cc2C)c1	HXB2	RT-V106A Y181C	HeLa + HELA CD4+	β-galactosidase	<0.01 µM
OCCC#Cc1nc(-c2ccc(F)cc2)c(-c2ccncc2)n1CCCc1ccccc1	89.6		Mono Mac 6	p24	1 µM
Cc1nc2ccc(Cl)cc2c(-c2ccc(Br)cc2)c1C(OC(C)C)C(=O)O			C8166	luciferase / reporter gene	<20 µM
COCc1nc(Nc2ccc(C#N)cc2)nc(Oc2c(C)cc(/C=C(\C)C#N)cc2C)c1C(=O)NCc1ccncc1	K103N + Y181C		MT4 CMV-EGFP		0.0759 µM
N#CC(=C1CCN(C(=O)C(=O)c2c[nH]c3c(-c4ncco4)ccnc23)CC1)c1ccccc1			HeLa	luciferase	<1 µM
CCOC(C(=O)O)c1c(C)nc2ccc(Cl)cc2c1-c1ccc(Cl)cc1			C8166	luciferase / reporter gene	<20 µM
Cc1cc2[nH]cnc2cc1NC(=O)COc1ccc(Cl)cc1C(=O)c1cc(F)cc(C(F)(F)F)c1	HXB2	RT-V108I	HeLa + HELA CD4+	β-galactosidase	<0.01 µM
COCc1nc(Nc2ccc(C#N)cc2)nc(Nc2c(C)cc(/C=C/C#N)cc2C)c1C(=O)NCC1CCCO1	MDR		MT4 CMV-EGFP		0.355 µM
CC(C)N=C(Nc1cccc2c(C(=O)C(=O)N3CCN(C(=O)c4ccccc4)C[C@H]3C)c[nH]c12)NC(C)C			HeLa	luciferase / reporter gene	<1 µM
Cc1cc2cn[nH]c2cc1NC(=O)COc1ccc(Cl)cc1C(=O)c1cccc(C#N)c1	HXB2	RT-G190A	HeLa + HELA CD4+	β-galactosidase	<0.01 µM
Cc1nc2ccc(Cl)cc2c(-c2ccc(CCF)cc2)c1C(OC(C)(C)C)C(=O)O			C8166	luciferase / reporter gene	<20 µM
CC1CC(C)CN(S(=O)(=O)c2ccccc2[N+](=O)[O-])C1	G-3		HeLa	GFP / fluorescence	0.89 µM
COc1ccc(N(C)C(=O)[C@H](Cc2ccccc2)NC(=O)c2cccc(C(=O)N[C@@H](Cc3ccccc3)C(=O)N(C)c3ccc(OC)cc3)n2)cc1	NL4-3		MT-2	luciferase	0.95 µM
CN1c2ccccc2C2C1C=C(C#N)C(=O)N2c1ccc([N+](=O)[O-])cc1	52543-2		HeLa	GFP / fluorescence	0.07 µM
CC(C)CN(C[C@@H](O)[C@H](Cc1ccccc1)NC(=O)O[C@H]1CO[C@H]2OCC[C@H]21)S(=O)(=O)c1ccc2c(c1)OCO2	92TH019		PHA-PBM	p24	0.0003 µM
Clc1cc(CN2CCCNCCNCCCNCC2)cc(Cl)n1	BAL R5		MM + M/M	p24	23.9 µM
COc1ncc(OC)c2c(C(=O)C(=O)N3CCC(=C(c4ccccc4)c4c(C)noc4C)CC3)c[nH]c12			HeLa	luciferase	<1 µM
COCc1nc(Nc2ccc(C#N)cc2)nc(Nc2c(C)cc(/C=C/C#N)cc2C)c1C(=O)NCc1cccnc1	IIIB		MT4 CMV-EGFP		0.00288 µM
COc1ncc(OC)c2c(C(=O)C(=O)N3CCC(=C(c4ccccc4)c4ccc(SC)cc4)CC3)c[nH]c12			HeLa	luciferase	<1 µM
C[C@H]1[C@H](O)[C@@H](C)/C=C/C=C/C=C/C=C/C=C/C=C/C=C/[C@H](O[C@@H]2O[C@H](C)[C@@H](O)[C@H](N)[C@@H]2O)C[C@@H]2O[C@](O)(C[C@@H](O)C[C@@H](O)CC[C@H](O)[C@@H](O)C[C@@H](O)CC(=O)O[C@H]1C)C[C@H](O)[C@H]2C(=O)O	CMU06 CLADE E X4 (SI)		PBMC	p24 / RT activity	1.3 µM
CCc1cc(C#N)cc(C(=O)c2cc(Cl)ccc2OCC(=O)Nc2ccc(S(N)(=O)=O)cc2C)c1	HXB2	RT-L100I	HeLa + HELA CD4+	β-galactosidase	<0.01 µM
C=C(C)CN1CCNC(=O)c2oc3ccc(OC)cc3c21			OM-10.1	p24	<0.08 µM
COCc1nc(Nc2ccc(C#N)cc2)nc(Nc2c(C)cc(/C=C/C#N)cc2C)c1C(=O)NC1CC1	L1001+K103N		MT4 CMV-EGFP		0.0155 µM

The first 6 rows once more:

compound | strain or isolate | mutations | cell line | method | result
CN(C(=O)[C@H](Cc1cc(F)cc(F)c1)NC(=O)CN1c2ccccc2N(CC(=O)N[C@@H](Cc2cc(F)cc(F)c2)C(=O)N(C)c2ccc3c(c2)ncn3C)S1(=O)=O)c1ccc2c(c1)ncn2C | NL4-3 |  | MT-2 | luciferase | 0.42 µM
CCOC(=O)c1ccc(NC(=O)Nc2cccc3c(C(=O)C(=O)N4CCC(=C(C#N)c5ccccc5)CC4)c[nH]c23)cc1 |  |  | HeLa | luciferase / reporter gene | <1 µM
COc1ccc(N(C)C(=O)[C@H](Cc2ccccc2)NC(=O)NS(=O)(=O)N[C@@H](Cc2ccccc2)C(=O)N(C)c2ccc(OC)cc2C)cc1 | NL4-3 |  | MT-2 | luciferase | 1.72 µM
Cc1nnc(C(=C2CCN(C(=O)C(=O)c3c[nH]c4c(Cl)ccnc34)CC2)c2ccccc2)o1 |  |  | HeLa | luciferase | <1 µM
C[C@@H]1CN(C(=O)c2ccccc2)CCN1C(=O)C(=O)c1c[nH]c2c(NC(=O)CO)cccc12 |  |  | HeLa | luciferase / reporter gene | <1 µM
CCc1ccc(-c2c(C(OC(CC)CC)C(=O)O)c(C)nc3ccc(Cl)cc23)cc1 |  |  | C8166 | luciferase / reporter gene | <20 µM

ECn: concentration that inhibits the pathogen or its effect by n%. An empty or dashed field is not shown. Rows are shuffled and stem from different studies.